{
  "source": "patent US20240336672A1",
  "assay_in_all_cases": "flow cytometry (Mock 2.5)",
  "key": {"[1]": {"target": "SARS-CoV-2 δ variant spike protein, cell-expressed (SARS-CoV-2)"}, "[2]": {"target": "α (SARS-CoV-2)"}, "[3]": {"target": "β (SARS-CoV-2)"}, "[4]": {"target": "ε (SARS-CoV-2)"}, "[5]": {"target": "ι (SARS-CoV-2)"}, "[6]": {"target": "κ (SARS-CoV-2)"}},
  "data": [
    {"substance": "Sotrovimab (antibody)", "values": [
      {"measurement": "log10 ΔgMFI", "setting": "[1]", "value": 4.3},
      {"measurement": "log10 ΔgMFI", "setting": "[2]", "value": 4.1},
      {"measurement": "log10 ΔgMFI", "setting": "[3]", "value": 3.7},
      {"measurement": "log10 ΔgMFI", "setting": "[4]", "value": 4.2},
      {"measurement": "log10 ΔgMFI", "setting": "[5]", "value": 4.7},
      {"measurement": "log10 ΔgMFI", "setting": "[6]", "value": 4.5}
    ]}
  ]
}
